This note sets out measurements from PMC12023841, “Unlocking the Gates: A Novel Diagnostic Molecule for Quantifying Efflux Levels in Gram‐Positive Bacteria” (Advanced Healthcare Materials, 2025).

For the data set, the system named is HaCaT keratinocytes cells. In words: In-vitro cytotoxicity test, Neutral Red uptake. The class given is cell-based, Human. Particulars: 24 hours. The method, then: Method: The in-vitro cytotoxicity test assessed cell viability based on Neutral Red uptake, a dye that accumulates in lysosomes and decreases in response to membrane damage. HaCaT keratinocytes were cultured in DMEM with 10% calf serum and incubated at 37°C, 5% CO₂. Cells were seeded in 96-well plates, treated with eight concentrations of the 5a4, and incubated for 24 hours. After washing, cells were exposed to Neutral Red medium for 3 hours, followed by washing and destaining. Optical density (OD540) was measured using a fluorescence reader, and IC50 values were calculated using Phototox Version 2.0, comparing treated wells to untreated controls.^[10]

“And” between values parts separate entries of the source, which are not always exact repeats. Equal entries are not always repeated.

As to `CCCCNc1ccc2nc3cc(NCCOC)c(N)cc3[n+](CCC)c2c1` [5a4], the “Optical Densities (OD540), replicates n=3” value (“Optical Densities (OD540)” below) by setting is: (0.00025 µg/ml) 0.67 and 0.666 and 0.648; (0.0005 µg/ml) 0.671 and 0.658 and 0.633; (0.001 µg/ml) 0.598 and 0.584 and 0.579; (0.025 µg/ml) 0.552 and 0.548 and 0.597; (0.05 µg/ml) 0.468 and 0.492 and 0.458; (0.1 µg/ml) 0.413 and 0.425 and 0.426. Also, the “Optical Densities (OD540)” value (0.25 µg/ml) is 0.323 and 0.319 and 0.325; the “Optical Densities (OD540)” value (0.5 µg/ml) was 0.284 and 0.274 and 0.289; the “Optical Densities (OD540)” value (1 µg/ml) was 0.123 and 0.101 and 0.134; the “Optical Densities (OD540)” value (2.5 µg/ml) is 0.095 and 0.1 and 0.098.
